Data as given in PubChem BioAssay AID624099 (ICCB-Longwood, 2012)

Screen: 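Host factors E2 relies on to silence an HPV18 LCR reporter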 (primary screen)
Cells: human C33A cervical carcinoma cells (HPV-negative) stably expressing BPV1 E2 and an HPV18 LCR luciferase reporter
Reagents: siRNA pool against human genes, 40 nM
Duration: 72 h
Measurement: 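Per-well luciferase luminescence, z-scored on each plate against the plate mean and SD with control wells left out, then averaged across three replicate plates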
Reading the numbers: mean z-score and z-score: higher = stronger reporter signal, weaker E2 silencing
Rule for the call: 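Hit if mean z-score reaches 2 and two or more of three replicate z-scores also reach 2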
The deposit covers about 21,000 reagents; this is an unselected part. Over the whole deposit, 497 (2.4%) were called active. 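Higher z means weaker E2 silencing; only reporter increases were scored, and knock-downs that hurt cell survival may mask genuine repressor factors.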 Entries without a mark were called inactive. Reagent sequences are not shown.

After knock-down of LIMS1 (LIM zinc finger domain containing 1), the record shows mean z-score -1.73; z-score, replicate A = -1.77; z-score, replicate B = -1.86; z-score, replicate C = -1.57. With knock-down of PTENP1 (phosphatase and tensin homolog pseudogene 1), the screen gave mean z-score -0.62; z-score, replicate A = -0.53; z-score, replicate B = -0.7; z-score, replicate C = -0.63. ZNF587 (zinc finger protein 587) scored mean z-score -0.23; z-score, replicate A = -0.33; z-score, replicate B = -0.37; z-score, replicate C = 0. Knock-down of SNX7 (sorting nexin 7) gave: mean z-score 1.24; z-score, replicate A = 1.76; z-score, replicate B = 1.17; z-score, replicate C = 0.78. LOC388943 (retired record) scored mean z-score 0.1; z-score, replicate A = 0.14; z-score, replicate B = 0.06; z-score, replicate C = 0.09. Against EOLA1 (endothelium and lymphocyte associated ASCH domain 1) the deposit lists mean z-score -0.34; z-score, replicate A = -0.44; z-score, replicate B = -0.28; z-score, replicate C = -0.31.

For PSG8-AS1 (PSG8 antisense RNA 1), the values are mean z-score -0.16; z-score, replicate A = 0.08; z-score, replicate B = -0.54; z-score, replicate C = -0.03. With knock-down of HERPUD2 (HERPUD family member 2) the results were mean z-score 0.43; z-score, replicate A = 0.27; z-score, replicate B = 0.46; z-score, replicate C = 0.55. Silencing of SPATC1 (spermatogenesis and centriole associated 1) resulted in: mean z-score 1.12; z-score, replicate A = 0.77; z-score, replicate B = 0.9; z-score, replicate C = 1.7. For SMAP1 (small ArfGAP 1), the entry reads mean z-score 1.2; z-score, replicate A = 1.66; z-score, replicate B = 1.2; z-score, replicate C = 0.75. Silencing of TRIM74 (tripartite motif containing 74) resulted in: mean z-score -0.3; z-score, replicate A = 0.16; z-score, replicate B = -0.61; z-score, replicate C = -0.46. Silencing of CYP1A2 (cytochrome P450 family 1 subfamily A member 2) resulted in: mean z-score -0.13; z-score, replicate A = -0.05; z-score, replicate B = -0.08; z-score, replicate C = -0.25.

Depletion of NSUN5P1 (NSUN5 pseudogene 1) gave: mean z-score -0.87; z-score, replicate A = -0.9; z-score, replicate B = -0.21; z-score, replicate C = -1.51. With knock-down of F11 (coagulation factor XI), the record shows mean z-score -0.68; z-score, replicate A = -0.86; z-score, replicate B = -0.91; z-score, replicate C = -0.27.

A few values from above.
Value for F11 (coagulation factor XI) under “z-score, replicate C”: -0.27
Under “z-score, replicate B”, SNX7 (sorting nexin 7) shows 1.17
